The subject of the assay is Trypanosoma cruzi. Nature of the assay: In vitro inhibitory activity against growth of Trypanosoma cruzi at a concentration of 30 uM; 20-40%.
With `CCC(COC(C)=O)OC(COC(C)=O)n1cnc2c(N)ncnc21` (centres undefined), the growth inhibition (GI) was found to be 40%.
Compound `CC(=O)OCC(CCl)OC(COC(C)=O)n1cnc2c(N)ncnc21` (centres undefined) displayed a growth inhibition (GI) of 40%.
Next, `CC(=O)OCC(CO)OC(COC(C)=O)n1cnc2c(F)nc(N)nc21` (centres undefined): 40%; `CC(=O)OCC(CO)OC(COC(C)=O)n1cnc2c(N)nc(N)nc21` (centres undefined): 40%.

Source of the values: ChEMBL document CHEMBL1121863, “New analgesic drugs derived from phencyclidine” (1981).
